Assay results from paper PMC3551969, “Identification of Novel Protein-Protein Interactions of Yersinia pestis Type III Secretion System by Yeast Two Hybrid System” (PLoS ONE, 2013).

B1: YscF (recombinant, for GST pull-down) (natural protein)
chain: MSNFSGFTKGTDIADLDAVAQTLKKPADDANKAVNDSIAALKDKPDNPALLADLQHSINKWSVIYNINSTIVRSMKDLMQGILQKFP
B2: YscG (recombinant, for GST pull-down) (natural protein)
chain: MKYKLNVLLAEIALIGTGNHYHEEANCIAEWLHLKGEEEAVQLIRLSSLMNRGDYASALQQGNKLAYPDLEPWLALCEYRLGLGSALESRLNRLARSQDPRIQTFVNGMREQLKT

Columns and labels:
[1] = target: YscI (recombinant, for GST pull-down) (Y. pestis, UniProt P69970)
[2] = target: SycD (recombinant, for GST pull-down) (Y. pestis, UniProt P21207); details: both partners purified

Binder	binding result [1]	binding result [2]
B1	binds	–
B2	–	binds
